According to article PMC7615677, “DNDI-6174, a preclinical candidate for visceral leishmaniasis that targets the cytochrome bc1 complex” (Science translational medicine, 2023):

Test system: L. donovani promastigote cultures
Format: cell-based, Leishmania donovani
Conditions: DNDI-6174 Res 2 (Asp231Glu)
Description: The clonal L. donovani cell line LdBOB (derived from MHOM/SD/62/1S-CL2D) was grown as promastigotes at 28°C and as axenic amastigotes at 37°C, as described previously ([25]).
To examine the effects of test compounds on growth in 96-well plates, promastigote or axenic amastigote cultures seeded at 5 × 10^4 parasites mL^–1 were incubated in the presence of 2-fold serial dilutions of test compounds for 72 h. Following incubation, 50 μM resazurin was added to each well and fluorescence (excitation of 528 nm and emission of 590 nm) measured after a further 3 h incubation.
Starting at sublethal concentrations, drug concentrations in 5 independent cultures were increased in a stepwise manner, usually by 2-fold. […] Five clones (Res 1–5) were selected for further biological study.

For Cc1[nH]c2nc(N)nc(C)c2c1-c1ccc(C#N)c2c1OCO2 [DNDI-6174], the “Fold-change versus WT” value was 164.
